Source: patent US7964624B1, “Inhibitors of serine proteases” (priority 2005, dated 2011)

Sequences of proteins named here, by UniProt entry; tags and fusion partners are left off. A line that says so, or that is headed by a name, gives the form on record, which may keep a tag or linker. Residues count along the entry.
UniProt P27958, 1658-1711 partner limits assumed: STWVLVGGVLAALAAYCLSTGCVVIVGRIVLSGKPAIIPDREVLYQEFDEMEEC
UniProt P27958, 1027-1711 with tags or gaps with the stated changes: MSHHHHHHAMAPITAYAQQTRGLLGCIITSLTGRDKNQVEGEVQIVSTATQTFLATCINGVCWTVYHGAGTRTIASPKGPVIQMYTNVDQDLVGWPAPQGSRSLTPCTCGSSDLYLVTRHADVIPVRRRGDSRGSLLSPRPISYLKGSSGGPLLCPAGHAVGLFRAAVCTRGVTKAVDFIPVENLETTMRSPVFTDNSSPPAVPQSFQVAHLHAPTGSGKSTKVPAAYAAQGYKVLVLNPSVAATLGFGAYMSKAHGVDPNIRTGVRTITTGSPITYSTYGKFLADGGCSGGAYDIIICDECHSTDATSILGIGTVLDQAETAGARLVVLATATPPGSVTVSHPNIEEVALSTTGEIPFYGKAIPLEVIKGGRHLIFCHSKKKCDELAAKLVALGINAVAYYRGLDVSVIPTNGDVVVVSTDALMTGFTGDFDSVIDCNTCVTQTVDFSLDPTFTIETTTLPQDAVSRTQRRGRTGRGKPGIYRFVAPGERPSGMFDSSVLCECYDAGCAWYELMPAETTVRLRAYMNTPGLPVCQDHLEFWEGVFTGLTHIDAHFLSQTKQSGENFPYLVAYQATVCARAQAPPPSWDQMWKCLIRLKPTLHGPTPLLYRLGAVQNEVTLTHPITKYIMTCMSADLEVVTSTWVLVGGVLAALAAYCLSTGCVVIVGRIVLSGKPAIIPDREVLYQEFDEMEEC

biological target: full-length hepatitis C viral protein NS3•4A (Hepatitis C virus genotype 1a, UniProt P27958); experiment: HCV NS3 Peptide Cleavage Assay (Enzyme Assay 2), apparent Ki; details: read-out: Enzyme Assay 2 (HCV NS3 Peptide Cleavage Assay) activity; apparent Ki class
Excerpt: Using standard recombinant DNA techniques, a cDNA fragment encoding the sequence for NS3 and NS4A, residues Ala1027 to Cys1711 from the HCV sub-type strain 1a, containing an N-terminal hexa-histidine sequence, was cloned into the baculoviral transfer vector pVL1392 (Webb N R and Summers M D (1990) Expression of proteins using recombinant baculoviruses, Techniques 2:173-188). […] The transfected insect cells containing recombinant baculovirus clones were subsequently isolated by plaque purification. High-titer clonal baculovirus was routinely used to infect SD insect cells for protein production. In production, Sf9 cells were grown at 27° C. until they reached a density of 2.0×10^6 cells/ml. At this point, the insect cells were infected with virus. After 72 hours or when the cell viability was between 70-80% the culture was harvested and the cells were ready for purification. The NS3•4A protein (SEQ ID NO:1) was purified as follows. Cell paste was thawed in at least five volumes of Lysis Buffer (50 mM Na2HPO4 pH 8.0, 10% Glycerol, 300 mM NaCl, 5 mM β-mercaptoethanol, 0.2 mM PMSF, 2.5 μg/ml Leupeptin, 1.0 μg/mlE64, 2.0 μg/ml Pepstatin) per gram of cell paste. The cell paste was then homogenized on ice using a Dounce homogenizer. The cells were next mechanically disrupted by passing once through a microfluidizer (Microfluidics Corporation, Newton, Mass.), and the cell lysate was collected on ice. The cell lysates was centrifuged at 100,000×g for 30 minutes at 4° C. and the supernatants were decanted. Optionally, the pellets were resuspended in wash buffer (Lysis Buffer+0.1% β-octyl glucopyranoside), homogenized using a Dounce homogenizer and centrifuged at 100,000×g for 30 minutes at 4° C. Insoluble NS3° 4A was extracted from the pellets by resuspending in Extraction Buffer (Lysis Buffer+0.5% lauryl maltoside) using 2.5 ml/g cell paste. The mixture was homogenized using a Dounce homogenizer and mixed at 4° C. for three hours or more. The mixture was centrifuged at 100,000×g for 30 minutes at 4° C. The supernatants were decanted and pooled. The NS3•4A protein was further purified using Nickel-NTA metal affinity chromatography. Imidazole from a 2 M stock, pH 8.0, solution was added to the pooled supernatants so that the final concentration of imidazole was 10 mM. The supernatants were incubated batchwise overnight at 4° C. with Nickel-NTA affinity resin that had been pre-equilibrated with Lysis Buffer+10 mM imidazole. 1 ml of resin per 5 μg of expected NS3-4A was used. The resin was next settled by gravity or by centrifugation at 500×g for five minutes. The resin was next poured into a gravity flow column and washed with 10 or more column volumes of Nickel Wash Buffer (Lysis Buffer+0.1% lauryl maltoside+10 mM imidazole). The column was next eluted with three to four column volumes of Nickel Elution Buffer (Nickel Wash Buffer+300 mM imidazole). The elution fractions were collected on ice and evaluated using SDS-PAGE. To prevent NS3-4A proteolysis, 100 μM DFP protease inhibitor was added to gel samples before adding SDS sample buffer and boiling. The peak fractions were pooled and protein concentration was determined by measuring absorbance at 280 ηm and by dividing by the extinction coefficient (e), which for NS3•4A is 1.01. The NS3•4A was purified further using gel filtration chromatography. A Superdex 200 26/60 column was equilibrated with Superdex Buffer (20 mM HEPES pH 8.0, 10% glycerol, 300 mM NaCl, 10 mM β-mercaptoethanol, 0.05% lauryl maltoside) at a rate of 3 ml/min. The nickel purified NS3•4A was concentrated in a Centriprep 30 to greater than 2 mg/ml, if necessary, and was filtered through a 0.2 μm syringe filter and up to 10 ml was loaded onto the Superdex 200 column. After 0.3 column volumes passed through, 4-5 ml fractions were collected. Fractions were evaluated by SDS-PAGE. NS3•4A protein elutes in two peaks. Peak 1 contains aggregated NS3•4A and peak 2 contains active protein. The fractions of peak 2 were pooled, aliquoted and frozen at −70° C. […]

Compound	Ki [nM]
COc1c(C)cc(C2=NO[C@]3(C2)C[C@@H](C(=O)N[C@@H](CC2CC2)C(=O)C(N)=O)N(C(=O)[C@@H](NC(=O)CC(C)(C)C)C(C)(C)C)C3)cc1C	< 100
CCC[C@H](NC(=O)[C@@H]1C[C@]2(CC(c3cc(Cl)ccc3OC)=NO2)CN1C(=O)[C@@H](NC(=O)OC(C)(C)C)C(C)(C)C)C(=O)C(N)=O	< 100
CCC[C@H](NC(=O)[C@@H]1C[C@]2(CC(c3cc(Cl)ccc3OC)=NO2)CN1C(=O)[C@@H](NC(=O)CC(C)(C)C)C(C)(C)C)C(=O)C(N)=O	< 100
CCC[C@H](NC(=O)[C@@H]1C[C@]2(CC(c3cc(Cl)c(OC)cc3OC)=NO2)CN1C(=O)[C@@H](NC(=O)[C@H]1C[C@@H]1c1ccccc1)C(C)(C)C)C(=O)C(N)=O	< 100
CCC[C@H](NC(=O)[C@@H]1C[C@]2(CC(c3cc(C)c(OC)c(C)c3)=NO2)CN1C(=O)[C@@H](NC(=O)OC1CCCC1)C(C)(C)OC)C(=O)C(=O)NC1CC1	< 100
CNC(=O)C(=O)[C@H](CC1CC1)NC(=O)[C@@H]1C[C@]2(CC(c3cc(C)c(OC)c(C)c3)=NO2)CN1C(=O)[C@@H](NC(=O)CC1CCCCCC1)C(C)(C)C	< 100
CCC[C@H](NC(=O)[C@@H]1C[C@]2(CC(c3cc(C)c(OC)c(C)c3)=NO2)CN1C(=O)[C@@H](NC(=O)OC1CCCC1)C(C)(C)C)C(=O)C(=O)NC1CC1	< 100
CCC[C@H](NC(=O)[C@@H]1C[C@]2(CC(c3cccc(Cl)c3OC)=NO2)CN1C(=O)[C@@H](NC(=O)CC1CCCCC1)C(C)(C)C)C(=O)C(=O)NC1CC1	100 to 500
CNC(=O)C(=O)[C@H](CC1CC1)NC(=O)[C@@H]1C[C@]2(CC(c3cc(Cl)c(OC)cc3OC)=NO2)CN1C(=O)[C@@H](NC(=O)OC(C)(C)C)C(C)(C)C	< 100
CCC[C@H](NC(=O)[C@@H]1C[C@]2(CC(c3cc(Cl)ccc3OC)=NO2)CN1C(=O)[C@@H](NC(=O)CC(C)(C)C)C(C)(C)C)C(=O)C(=O)NC1CC1	< 100
CCC[C@H](NC(=O)[C@@H]1C[C@]2(CC(c3cc(Cl)c4c(c3)OCCO4)=NO2)CN1C(=O)[C@@H](NC(=O)CC1CCCCC1)C(C)(C)C)C(=O)C(=O)NC1CC1	< 100
CNC(=O)C(=O)[C@H](CC1CC1)NC(=O)[C@@H]1C[C@]2(CC(c3cccc(Cl)c3)=NO2)CN1C(=O)[C@@H](NC(=O)O[C@H]1C[C@@H]1c1ccccc1)C(C)(C)C	100 to 500
CCC[C@H](NC(=O)[C@@H]1C[C@]2(CC(c3cccc(Cl)c3)=NO2)CN1C(=O)[C@@H](NC(=O)OC1CCCCC1)C(C)(C)C)C(=O)C(=O)NC1CC1	< 100
CCC[C@H](NC(=O)[C@@H]1C[C@]2(CC(c3cccc(Cl)c3)=NO2)CN1C(=O)[C@@H](NC(=O)OC(C)(C)C)C(C)(C)C)C(=O)C(=O)NC	< 100

same assay, conditions: read-out: Enzyme Assay 2; HCV NS3 Peptide Cleavage Assay, apparent Ki

Compound	Ki [nM]
CNC(=O)C(=O)[C@H](CC1CC1)NC(=O)[C@@H]1C[C@]2(CC(c3cc(C)c(OC)c(C)c3)=NO2)CN1C(=O)[C@@H](NC(=O)[C@H]1C[C@@H]1c1ccccc1)C(C)(C)C	< 100
CCC[C@H](NC(=O)[C@@H]1C[C@]2(CC(c3cccc(Cl)c3)=NO2)CN1C(=O)[C@@H](NC(=O)CC1CCCCC1)C(C)(C)OC)C(=O)C(=O)NC1CC1	< 100
CCC[C@H](NC(=O)[C@@H]1C[C@]2(CC(c3cc(Cl)c(OCC)cc3OC)=NO2)CN1C(=O)[C@@H](NC(=O)OC1CCCC1)C(C)(C)C)C(=O)C(=O)NC	< 100
CCC[C@H](NC(=O)[C@@H]1C[C@]2(CC(c3cc(C)c(OC)cc3OC)=NO2)CN1C(=O)[C@@H](NC(=O)OC1CCCC1)C(C)(C)C)C(=O)C(=O)NC1CC1	< 100
CCNC(=O)C(=O)[C@H](CC1CC1)NC(=O)[C@@H]1C[C@]2(CC(c3cc(C)c(OC)cc3OC)=NO2)CN1C(=O)[C@@H](NC(=O)OC1CCCC1)C(C)(C)C	< 100
CCC[C@H](NC(=O)[C@@H]1C[C@]2(CC(Oc3ccccc3)=NO2)CN1C(=O)[C@@H](NC(=O)OC1CCCC1)C(C)(C)C)C(=O)C(=O)NC1CC1	100 to 500
CCC[C@H](NC(=O)[C@@H]1C[C@]2(CC(c3cncnc3)=NO2)CN1C(=O)[C@@H](NC(=O)OC1CCCC1)C(C)(C)C)C(=O)C(=O)NC1CC1	> 500
CCNC(=O)C(=O)[C@H](CC1CC1)NC(=O)[C@@H]1C[C@]2(CC(c3cccc(Cl)c3)=NO2)CN1C(=O)[C@@H](NC(=O)CC1CCCCCC1)C(C)(C)C	< 100
CCC[C@H](NC(=O)[C@@H]1C[C@]2(CC(c3cc(Cl)c(OCC)cc3OC)=NO2)CN1C(=O)[C@@H](NC(=O)OC(C)(C)C)C(C)(C)C)C(=O)C(=O)NC1CC1	< 100
CCC[C@H](NC(=O)[C@@H]1C[C@]2(CC(c3cc(C)c(OC)c(C)c3)=NO2)CN1C(=O)[C@@H](NC(=O)[C@@H]1C[C@H]1c1ccccc1)C(C)(C)C)C(=O)C(=O)NC	< 100
COc1cc(OC)c(C2=NO[C@]3(C2)C[C@@H](C(=O)N[C@@H](CC2CC2)C(=O)C(N)=O)N(C(=O)[C@@H](NC(=O)[C@@H]2C[C@H]2c2ccccc2)C(C)(C)C)C3)cc1Cl	< 100
CCOc1c(C)cc(C2=NO[C@]3(C2)C[C@@H](C(=O)N[C@@H](CC2CC2)C(=O)C(=O)NC)N(C(=O)[C@@H](NC(=O)[C@@H]2C[C@H]2c2ccccc2)C(C)(C)C)C3)cc1Cl	< 100
CCC[C@@H](NC(=O)[C@@H]1C[C@]2(CC(c3cc(C)c(OCC)c(C)c3)=NO2)CN1C(=O)[C@@H](NC(=O)CC1CCCCC1)C(C)(C)C)C(=O)C(=O)NC1CC1	100 to 500
CC[C@@H]1C[C@H]1C(=O)N[C@H](C(=O)N1C[C@@]2(CC(c3cccc(Cl)c3)=NO2)C[C@H]1C(=O)N[C@@H](CC1CC1)C(=O)C(=O)NC)C(C)(C)C	< 100
CCC[C@H](NC(=O)[C@@H]1C[C@]2(CC(c3cccc(Cl)c3)=NO2)CN1C(=O)[C@@H](NC(=O)[C@@H]1[C@@H](C=C(C)C)C1(C)C)C(C)(C)C)C(=O)C(=O)NC1CC1	100 to 500
CNC(=O)C(=O)[C@H](CC1CC1)NC(=O)[C@@H]1C[C@]2(CC(c3cc(Cl)ccc3OC)=NO2)CN1C(=O)[C@@H](NC(=O)[C@@H]1C[C@H]1c1ccccc1)C(C)(C)C	< 100
CNC(=O)C(=O)[C@H](CC1CC1)NC(=O)[C@@H]1C[C@]2(CC(c3cc(C)c(OC)cc3OC)=NO2)CN1C(=O)[C@@H](NC(=O)[C@@H]1C[C@H]1c1ccccc1)C(C)(C)C	< 100
CCC[C@H](NC(=O)[C@@H]1C[C@]2(CC(c3cccc(Cl)c3)=NO2)CN1C(=O)[C@@H](NC(=O)[C@@H]1C[C@H]1C1CCCCC1)C(C)(C)C)C(=O)C(=O)NC1CC1	< 100
COc1cc(OC)c(C2=NO[C@]3(C2)C[C@@H](C(=O)N[C@@H](CC2CC2)C(=O)C(N)=O)N(C(=O)[C@@H](NC(=O)[C@@H]2C[C@H]2c2ccccc2)C(C)(C)C)C3)cc1C	< 100
CCC[C@H](NC(=O)[C@@H]1C[C@]2(CC(NCc3ccccc3)=NO2)CN1C(=O)[C@@H](NC(=O)OC1CCCC1)C(C)(C)C)C(=O)C(=O)NC1CC1	< 100
CNC(=O)C(=O)[C@H](CC1CC1)NC(=O)[C@@H]1C[C@]2(CC(c3cccc(Cl)c3)=NO2)CN1C(=O)[C@@H](NC(=O)[C@@H]1C[C@H]1c1cccc(OC)c1)C(C)(C)C	< 100
CNC(=O)C(=O)C(CC1CC1)NC(=O)C1CC2(CC(c3cccc(Cl)c3)=NO2)CN1C(=O)C(NC(=O)C1CC1c1ccccc1F)C(C)(C)C (centres unmarked)	< 100
COc1cc(OC)c(C2=NO[C@]3(C2)C[C@@H](C(=O)N[C@@H](CC2CC2)C(=O)C(N)=O)N(C(=O)[C@@H](NC(=O)OC2CCCC2)C(C)(C)C)C3)cc1C	< 100
CCC[C@H](NC(=O)[C@@H]1C[C@]2(CC(c3cc(C)c(OC)cc3OC)=NO2)CN1C(=O)[C@@H](NC(=O)OC1CCCC1)C(C)(C)C)C(=O)C(=O)NC	< 100
